PMC8583417, “Evaluation of the Antimicrobial Efficacy of N-Acetyl-L-Cysteine, Rhamnolipids, and Usnic Acid—Novel Approaches to Fight Food-Borne Pathogens” (International Journal of Molecular Sciences, 2021)

System: planktonic cells of Salmonella Infantis S13, Escherichia coli 683/17, Listeria monocytogenes 149, and Staphylococcus aureus 816
Test: Transmission electron microscopy imaging of planktonic cells
Format: cell-based
Details: 8 h

CC(=O)N[C@@H](CS)C(=O)O [NAC, N-Acetyl-L-cysteine]
effect on cell morphology (TEM) (3130 µg/mL (subinhibitory concentration)): formation of clusters of increased cell division without significant changes in the appearance of the cells
effect on cell morphology (TEM) (6250 µg/mL (minimum inhibitory concentration), both Gram-positive and Gram-negative bacteria): cell wall disruption and leakage of intracellular components
